Anti-infective test results gathered from many reports (values: NIAID ChemDB through PubChem).

Common to all: tests in culture; organism: HIV-1; method: RT activity; measure: EC50

Lines come from different laboratories, so protocols vary.

smiles,cell line,changes,conditions,strain,result
Cc1nnn([C@H]2C[C@H](n3cc(C)c(=O)[nH]c3=O)O[C@@H]2CO)c1C,PBMC,,,LAV,>100 µM
Nc1c(S(=O)(=O)O)cc2c3c(cc(S(=O)(=O)O)cc13)C(=O)N(NC(=O)N/N=C/c1ccccc1)C2=O,,,,LAV,~1760 µM
Nc1nc(=O)n([C@H]2CO[C@@H](CO)S2)cc1F,CBMC,RT-M184M/V,,3887(RT-M184M/V),0.3 µM
Oc1cccc(-c2c3nc(c(-c4cccc(O)c4)c4ccc([nH]4)c(-c4cccc(O)c4)c4nc(c(-c5cccc(O)c5)c5ccc2[nH]5)C=C4)C=C3)c1,PBMC,,,LAV,5.37 µM
Cc1cn([C@@H]2C[C@@H](F)[C@H](CO)O2)c(=O)[nH]c1=O,PBMC,,,LAV,>100 µM
Cc1cn([C@H]2C[C@H](N=[N+]=[N-])[C@@H](COP(=O)(O)OCCCCCCCCN(C)CCN(C)C)O2)c(=O)[nH]c1=O,CEM + CEM-4,,,LAI,0.2 µM
O=C(O)C(=O)CC(=O)c1cc(OCc2ccccc2)cc(OCc2ccccc2)c1,CEM + CEM-SS,,,LAI,0.43 µM
Nc1ccn([C@@H]2CO[C@H](CO)S2)c(=O)n1,MT-2,,,HXB2D,3 µM
CC[C@H](C)[C@H](NC(=O)[C@H](Cc1ccccc1)NC[C@@H](O)[C@H](Cc1ccccc1)NC(=O)[C@@H](NC(=O)[C@H](CC(C)C)NC(C)=O)C(C)C)C(=O)N[C@H](C(N)=O)C(C)C,CBMC(PHA) + CBMC,,4 d,TC354,>10 µM
Cc1cn([C@H]2C[C@H](N=[N+]=[N-])[C@@H](CO)O2)c(=O)[nH]c1=O,H9,,,IIIB,0.13 µM
O=c1[nH]c(=O)n([C@H]2C=C[C@@H](CO)O2)cc1C#CCOC1CCCCO1,CEM + CEM-SS,,,LAI,>50 µM
O=C(CCNC(=O)C(=O)/C=C(\O)c1cccn1Cc1ccc(F)cc1)OC[C@@H]1CC[C@H](n2ccc(=O)[nH]c2=O)O1,CEM + CEM-SS,,,LAI,>10 µM
Nc1ccn([C@H]2C=C[C@@H](CO)O2)c(=O)n1,PBMC,,,LAV,0.005 µM
CCOC(=O)P(=O)(OCc1ccc(Cl)cc1)OCc1ccc(Cl)cc1,CEM + CEM-SS,,,LAI,>10 µM
O=S1(c2ccccc2)=NC(=S)Nc2ccccc21,U-937,,,RF,5.04 µM
O=c1[nH]cnc2c1ncn2[C@H]1CC[C@@H](CO)O1,PBL (activated) + PBL,,,SF162 R5,11 µM
COC(=O)[C@H](C)NP(=O)(OC[C@@H]1C=C[C@H](n2cc(C)c(=O)[nH]c2=O)O1)Oc1ccc(Br)cc1,PBMC,,,NL4-3,0.02 µM
Cc1cn([C@H]2C[C@H](N=[N+]=[N-])[C@@H](CO)O2)c(=O)[nH]c1=O,MT-4,,,HXB2D,0.014 µM
Nc1nc(=O)n([C@@H]2CS[C@H](CO)O2)cc1F,PBMC,,,BI-RG587-resistant,0.0001 µM
CC[C@H](C)[C@H](NC(=O)[C@H](Cc1ccccc1)NC[C@H](O)[C@H](Cc1ccccc1)NC(=O)[C@@H](NC(=O)[C@H](CC(C)C)NC(C)=O)C(C)C)C(=O)N[C@H](C(N)=O)C(C)C,CBMC(PHA) + CBMC,,4 d,TC354,>10 µM
O=c1[nH]c(=O)n([C@H]2C=C[C@@H](CO)O2)cc1C#CCCCO,MT-4,,,IIIB,>100 µM
Cc1cn([C@H]2C=C[C@@H](CO)O2)c(=O)[nH]c1=O,PBL (resting) + PBL,,,SF162 R5,>4 µM
Cc1cn([C@H]2CC[C@@H](CO)O2)c(=O)[nH]c1=O,PBMC,,,LAV,0.17 µM
O=S(=O)(O)c1ccc(-c2c3nc(c(-c4ccc(S(=O)(=O)O)cc4)c4ccc([n-]4)c(-c4ccc(S(=O)(=O)O)cc4)c4nc(c(-c5ccc(S(=O)(=O)O)cc5)c5ccc2[n-]5)C=C4)C=C3)cc1.[Na+],PBMC,,,LAV,<1 µM
CC[C@H](C)[C@@H]1NC(=O)[C@@H](NC[C@@H](O)[C@H](Cc2ccccc2)NC(=O)[C@@H](NC(=O)c2ccc3ccccc3n2)C(C)C)Cc2ccc(cc2)OCCCNC1=O,CBMC(PHA) + CBMC,,4 d,TC354,0.1 µM
CCCCCCCCOC(=O)P(=O)(O)OC[C@H]1O[C@@H](n2cc(C)c(=O)[nH]c2=O)C[C@@H]1N=[N+]=[N-],CEM + CEM TK-,,,LAI,>100 µM
NNC(=O)NN1C(=O)c2cc(S(=O)(=O)[O-])cc3c(N)c(S(=O)(=O)[O-])cc(c23)C1=O,,,,LAV,>1760 µM
Cc1cn([C@H]2C[C@H](N=[N+]=[N-])[C@@H](COP(=O)(OCCCCSC(=O)C(C)(C)C)OCCCCSC(=O)C(C)(C)C)O2)c(=O)[nH]c1=O,CEM + CEM TK-,,,LAI,>10 µM
Cc1cn([C@H]2C[C@H](N=[N+]=[N-])[C@@H](CO)O2)c(=O)[nH]c1=O,PBL (resting) + PBL,,,BZ X4,4 µM
Cc1cn([C@H]2C=C[C@@H](COC(=O)CCNC(=O)C(=O)/C=C(\O)c3cccn3Cc3ccc(F)cc3)O2)c(=O)[nH]c1=O,MT-4,,,IIIB,4.5 µM
COc1ccccc1CN[C@H]1C2CCN(CC2)[C@H]1C(c1ccccc1)c1ccccc1,Macrophage + Monocytes/macrophages,,,BaL,~1 µM
CC(C)CN(C[C@@H](O)[C@H](Cc1ccccc1)NC(=O)[C@H](CC(N)=O)NC(=O)c1ccc2ccccc2n1)C(=O)NC(C)(C)C,PBMC,,,LAV,<0.14 µM
Cc1cn([C@H]2C=C[C@@H](COC(=O)CNC(=O)C(=O)/C=C(\O)c3cc(OCc4ccccc4)cc(OCc4ccccc4)c3)O2)c(=O)[nH]c1=O,CEM + CEM-SS,,,LAI,3.5 µM
O=S(=O)(O)c1ccc(Cl)c(-c2c3nc(c(-c4c(Cl)ccc(S(=O)(=O)O)c4Cl)c4ccc([n-]4)c(-c4c(Cl)ccc(S(=O)(=O)O)c4Cl)c4ccc([n-]4)c(-c4c(Cl)ccc(S(=O)(=O)O)c4Cl)c4nc2C=C4)C=C3)c1Cl.[Na+],PBMC,,,LAV,<1 µM
O=c1[nH]c(=O)n([C@H]2C=C[C@@H](CO)O2)cc1C#CCO,MT-4,,,IIIB,>100 µM
CC[C@H]1OC(=O)[C@H](C)[C@@H](O[C@H]2C[C@@](C)(OC)[C@@H](O)[C@H](C)O2)[C@H](C)[C@@H](O[C@@H]2O[C@H](C)C[C@H](N(C)C)[C@H]2O)[C@](C)(OC)C[C@@H](C)C(=O)[C@H](C)[C@@H](O)[C@]1(C)O,PBMC,,,LAV,<600 µM
Nc1nc(=O)n([C@@H]2CO[C@H](CO)S2)cc1F,CBMC,RT-M184V,,3350(RT-M184V),4.5 µM
Fc1cccc(F)c1[C@H]1SCc2nc3ccccc3n21,PBMC,,,IIIB,0.55 µM
Cc1cn([C@H]2C[C@H](N=[N+]=[N-])[C@@H](COP(=O)(O)OCCCCCCCCN3CCN(C)CC3)O2)c(=O)[nH]c1=O,CEM + CEM-4,,,LAI,0.4 µM
CC[C@H](C)[C@H](NC(=O)[C@@H]1CCCN1C[C@@H](O)[C@H](Cc1ccccc1)NC(=O)[C@H](CC(N)=O)NC(=O)[C@H](CC(C)C)NC(=O)[C@H](CO)NC(C)=O)C(=O)N[C@H](C(=O)OC)C(C)C,CBMC(PHA) + CBMC,,4 d,TC354,>10 µM
O=C(O)c1cc(O)cc(O)c1N=Nc1ccc(/C=C/c2ccc(N=Nc3c(O)cc(O)cc3C(=O)O)cc2S(=O)(=O)O)c(S(=O)(=O)O)c1,U-937,,,IIIB,5.8 µg/mL
CC(C)(C)C(=O)SCCOC(=O)P(=O)(O)OCCSC(=O)C(C)(C)C,CEM + CEM TK-,,,LAI,20 µM
Fc1cccc(F)c1C1SCc2nc3ccccc3n21,PBMC,,,IIIB,0.66 µM
Cc1cn([C@H]2C[C@H](N=[N+]=[N-])[C@@H](CO)O2)c(=O)[nH]c1=O,CEM + CEM-SS,,,LAI,0.0012 µM
Nc1c(S(=O)(=O)O)cc2c3c(cc(S(=O)(=O)O)cc13)C(=O)N(NC(=O)N/N=C/c1ccc(-c3ccc(/C=N/NC(=O)NN4C(=O)c5cc(S(=O)(=O)O)cc6c(N)c(S(=O)(=O)O)cc(c56)C4=O)cc3)cc1)C2=O,,,,LAV,<80 µM
Cc1cn([C@H]2C[C@H](N=[N+]=[N-])[C@@H](CO)O2)c(=O)[nH]c1=O,Jurkat cells,,,LAV,<0.5 µM
Cc1cn([C@H]2C[C@H](N=[N+]=[N-])[C@@H](CO)O2)c(=O)[nH]c1=O,PBMC,,,2:DR1 AZT-resistant,2 µM
Cc1cn([C@H]2C[C@H](F)[C@@H](CO)O2)c(=O)[nH]c1=O,PBMC,,,LAV,0.002 µM
Cc1cnnn1[C@H]1C[C@H](n2ccc(=O)[nH]c2=O)O[C@@H]1CO,PBMC,,,LAV,>100 µM
CC(C)(C)C(=O)SCCOP(=O)(OCCSC(=O)C(C)(C)C)OC[C@@H]1CC[C@H](n2cnc3c(N)ncnc32)O1,CEM + CEM-SS,,,LAI,0.0002 µM
O=C(O)P(=O)(O)O,PBL,,21 d,IIIB,<256 µM
Cc1cn([C@H]2C[C@H](N)[C@@H](CO)O2)c(=O)[nH]c1=O,PBMC,,,LAV,>100 µM
Cc1cn([C@H]2C[C@H](N=[N+]=[N-])[C@@H](CO)O2)c(=O)[nH]c1=O,U1(HIV-1 (LAV)) + U1,,,LAV,>1 µg/mL
CCCCCCCCOC(=O)P(=O)(OCc1ccc(Cl)cc1)OCc1ccc(Cl)cc1,CEM + CEM TK-,,,LAI,7.4 µM
Cc1cn([C@@H]2C[C@@H](N)[C@H](CO)O2)c(=O)[nH]c1=O,PBMC,,,LAV,>100 µM

ECn is the concentration giving n% inhibition of infection, replication or growth. Blank or dashed fields: not listed here.